Compound potency records, mixed from different reports. Data source: NIAID ChemDB in PubChem.

Common to all: host cell toxicity; cell line: HSB-2; endpoint: CC50

Rows are shuffled and stem from different studies.

structure | method | result
O[C@@H]1[C@H](O)CO[C@H]1n1c(Br)nc2cc(Cl)c(Cl)cc21 | ATP | 17 µM
OC[C@H]1O[C@@H](n2c(Br)nc3cc(Cl)c(Cl)cc32)[C@H](O)[C@@H]1O | - | >125 µM
Nc1nc(NCC2CC2)c2ncn(/C=C3/C[C@@H]3CO)c2n1 | - | >175 µM
OC[C@@H]1O[C@@H](n2c(Br)nc3cc(Cl)c(Cl)cc32)[C@H](O)[C@H]1O | ATP | 11 µM
Nc1nc2c(ncn2COCCO)c(=O)[nH]1 | - | 200 µM
C[C@H]1O[C@@H](n2c(NC3CC3)nc3cc(Cl)c(Cl)cc32)[C@H](O)[C@@H]1O | ATP | >100 µM
CCCCCCCCCCCCCCCCCOC[C@H](COP1(=O)CO[C@@H](Cn2ccc(N)nc2=O)CO1)OCc1ccccc1 | - | >1 µM
Cc1cn([C@@H]2S[C@@H](CO)[C@H](O)[C@H]2O)c(=O)[nH]c1=O | - | >100 µg/mL
C=CCNc1nc(N)nc2c1ncn2/C=C1/C[C@@H]1CO | - | >184 µM
CC(C)Nc1nc2cc(Cl)c(Cl)cc2n1[C@H]1O[C@H](C)[C@H](O)[C@@H]1O | ATP | 68 µM
CCCCCSc1nc(N)nc2c1ncn2/C=C1/C[C@@H]1CO | - | >156 µM
CCCCCCCC/C=C\CCCCCCCOCCOP1(=O)CO[C@@H](Cn2ccc(N)nc2=O)CO1 | - | >1 µM
O=c1[nH]c(=O)n([C@@H]2O[C@H](CO)[C@@H](O)[C@@H]2O)cc1/C=C/Br | - | 100 µM
O[C@@H]1[C@H](O)[C@H](O)CO[C@H]1n1c(Br)nc2cc(Cl)c(Cl)cc21 | neutral red | >125 µM
O[C@@H]1[C@H](O)[C@H](O)CO[C@H]1n1c(Br)nc2cc(Cl)c(Cl)cc21 | ATP | 43 µM
CCCCCCCC/C=C\CCCCCCCOCCCOP(=O)(O)CO[C@H](CO)Cn1ccc(N)nc1=O | - | >444 µM
NC(=O)c1c(Cl)c(-c2cccnc2)n2c1CCCC2 | - | 144 µM
CC(C)Nc1nc2cc(Cl)c(Cl)cc2n1[C@H]1O[C@@H](CO)[C@H](O)[C@@H]1O | - | >133 µM
CCCOc1nc(N)nc2c1ncn2/C=C1/C[C@@H]1CO | - | 26 µM
CC(C)Nc1nc2cc(Cl)c(Cl)cc2n1[C@@H]1O[C@@H](C)[C@@H](O)[C@H]1O | ATP | 17 µM
CCCCCCCC/C=C\CCCCCCCCOCCOP(=O)(O)CO[C@H](CO)Cn1ccc(N)nc1=O | - | >1.6 µM
O=C(O)P(=O)(O)O | - | 1500 µM
Nc1ccn(C[C@@H](CO)OCP(=O)(O)O)c(=O)n1 | - | >1 µM
C=CCOc1nc(N)nc2c1ncn2/C=C1/C[C@@H]1CO | - | 46 µM
Cn1cc(C(=O)NCc2ccc(Cl)cc2)c(=O)c2cc(CN3CCOCC3)ccc21 | MTS | >23.5 µM
CCCCCCCCCCCCCCCCCCOCCCOP1(=O)CO[C@@H](Cn2ccc(N)nc2=O)CO1 | - | >1 µM

A second listing of 2 rows from above:

CCCCCSc1nc(N)nc2c1ncn2/C=C1/C[C@@H]1CO ; result: >156 µM
CCCCCCCCCCCCCCCCCCOCCCOP1(=O)CO[C@@H](Cn2ccc(N)nc2=O)CO1 ; result: >1 µM

CCn is the concentration with n% toxicity to the cells. An empty or dashed field is not shown.